Article PMC4012986, “The Dimerization Domain in DapE Enzymes Is required for Catalysis” (PLoS ONE, 2014)

Test system: N[C@@H](CCC[C@H](NC(=O)CCC(=O)O)C(=O)O)C(=O)O
Experiment: purified protein
Conditions: 50 mM phosphate pH 7.5, 25 °C, two equivalents Zn(II)

With “WT-HiDapE (Haemophilus influenzae Rd KW20; T325A)” the Km was 2100 ± 200 µM and the kcat was 4 ± 0.5 s⁻¹.
